Data set [1] addresses LEF-6 (phosphorylated, insect cell) (UniProt S5G646). Put plainly: EMSA. Particulars: EMSA: 10 mM Tris pH 7.5, 20 mM KCl, 1 mM MgCl2, 1 mM DTT, 20 uM RNA, 22 C; recombinant protein; residues 1-173; protein details: His. On the technique in general: Mobility shift assays separate free from complexed probe on a gel.
The target is the same in data set [2]. Put plainly: fluorescence anisotropy. Particulars: Anisotropy: 20 mM Tris-HCl pH 7.5, 20 mM NaCl, 5 nM FAM-ssRNA, 28 C; recombinant protein; residues 1-173; protein details: His. For orientation: In fluorescence polarisation assays a small probe gives low polarisation when free and higher when bound to something large.

The exact form of at least one protein or probe is not confirmed.

On to CGGUUUGCCCGCUCAAUUGACCGAUCU [p10 ssRNA], for which the binding result in data set [1] and in data set [2] was “binds” throughout.
Turning to “GACAGGUCGCCGAAGUUACAGAACACG [p6.9 ssRNA]”, the binding result in data set [1] and in data set [2] was “binds” each time.

(Values after publication PMC12455930, “LEF-6 phosphorylation regulates the binding and trafficking of baculovirus late gene transcripts”.)
